Results from US20220053773A1 (priority 2018, published 2022).

Key:
[1] = test system: Pseudomonas Resistant BAA-2114; test: MIC against resistant Pseudomonas; conditions: Table 9 lower part, c6
[2] = test system: Xanthomonas Perforans BAA983; test: MIC against Xanthomonas perforans; conditions: Table 9 lower part, c9
[3] = test system: Xanthomonas Euvesicatoria 11633; test: MIC against Xanthomonas euvesicatoria; conditions: Table 9 lower part, c10
[4] = test system: E. coli strains resistant to 11P; test: Activity on E. coli strains evolved in vitro to resist 11P; assay type: cell-based; conditions: BL21 and ATCC 25922 resistant to 11P

Structure (SMILES) | MIC-human (μm) Pseudomonas Resistant BAA-2114 [1] [µM] | MIC-plant (μm) Xanthomonas Perforans BAA983 [2] [µM] | MIC-plant (μm) Xanthomonas Euvesicatoria 11633 [3] [µM] | rise of MIC in resistant E. coli strains [4]
CC[C@H](C)[C@@H]1NC(=O)[C@H](CCCCN)NC(=O)[C@H](CC(C)C)NC(=O)[C@H]([C@@H](C)CC)NC(=O)[C@H](CCCCN)NC(=O)[C@H](CCCCN)NC(=O)[C@H]([C@@H](C)CC)NC(=O)[C@H](CC(C)C)NC(=O)[C@H](CCCCN)NC(=O)[C@H](CCCCN)NC(=O)[C@H](CCCNC(=N)N)NC(=O)CNC(=O)[C@@H]2CCCN2C(=O)CNC(=O)[C@H](CCCCN)NC(=O)[C@H](CCCCN)NC(=O)[C@H](CC(C)C)NC(=O)[C@H]([C@@H](C)CC)NC(=O)[C@H](CCCCN)NC(=O)[C@H](CCCCN)NC(=O)[C@H]([C@@H](C)CC)NC(=O)[C@H](CC(C)C)NC(=O)[C@H](CCCCN)NC(=O)[C@H]([C@@H](C)CC)NC(=O)[C@H](CC(C)C)NC(=O)[C@H](CCCNC(=N)N)NC(=O)CNC(=O)[C@@H]2CCCN2C(=O)CNC(=O)[C@H](CC(C)C)NC1=O [CYCLIC30P] | 10 (≈ 33.7 µg/mL) | 5.0 (≈ 16.9 µg/mL) | 5.0 (≈ 16.9 µg/mL) | –
CC[C@H](C)[C@H](NC(=O)[C@H](CCCCN)NC(=O)[C@H](CC(C)C)NC(=O)[C@@H](NC(=O)[C@H](CCCCN)NC(=O)[C@H](CCCCN)NC(=O)[C@@H](NC(=O)[C@H](CC(C)C)NC(=O)[C@H](CCCCN)NC(=O)[C@@H](N)CCCCN)[C@@H](C)CC)[C@@H](C)CC)C(=O)N[C@@H](CC(C)C)C(=O)O [Peptide P11, KKLIKKILKIL] | – | – | – | 10-20 fold

In brackets after ≈: the same amount, converted by molar mass.
